According to PubChem BioAssay AID493005 (National Center for Advancing Translational Sciences (NCATS), 2010):
Only a part is listed here, and it is no random draw. Active and inactive are the calls of the source. Calls follow the shape of the dose curve; as a rule, active = well fitted inhibition curve with a large enough effect in the main read-out, with a control signal flat (not every such curve was filed as active); inconclusive = small, poorly fitted or top-dose-only effect, or effect the other way, or a change in a side signal; inactive = no such curve, though single readings can be large or run the other way.

Sequences of proteins named here, by UniProt entry; tags and fusion partners are left off.
UniProt Q99816, whole entry: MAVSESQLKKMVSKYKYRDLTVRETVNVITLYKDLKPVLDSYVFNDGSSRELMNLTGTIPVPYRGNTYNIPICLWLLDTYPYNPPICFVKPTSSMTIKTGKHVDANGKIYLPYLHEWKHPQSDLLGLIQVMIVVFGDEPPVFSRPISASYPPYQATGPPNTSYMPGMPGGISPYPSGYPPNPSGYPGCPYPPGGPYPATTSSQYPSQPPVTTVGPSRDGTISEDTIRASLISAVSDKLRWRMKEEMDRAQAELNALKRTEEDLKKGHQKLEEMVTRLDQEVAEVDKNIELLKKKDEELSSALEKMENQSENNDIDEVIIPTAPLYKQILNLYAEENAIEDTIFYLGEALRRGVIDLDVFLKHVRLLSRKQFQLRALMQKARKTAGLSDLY

Target: Tumor susceptibility gene 101 protein (Homo sapiens) (UniProt Q99816)
Assay: qHTS Assay for Iinhibitors of HIV-1 Budding by Blocking the Interaction of PTAP/TSG101; also: % of control where 0% means no effect
Details: Fluorescence polarization, FITC-PTAP peptide / Tsg101 binding; at 115 µM (top of the series)
From the text: NIH Molecular Libraries Probe Production Network [MLPCN] NIH Chemical Genomics Center [NCGC] MLPCN Grant: 1 R03 MH087464-01A1 PI Name: Dr. Eric Freed, NCI NCGC Assay Overview: Stages of the HIV-1 replication cycle, specifically virus assembly and release, provide underexploited targets for the development of novel antiviral inhibitors. The late stages of HIV-1 replication are mediated by the Gag precursor protein, Pr55Gag. Expression of Pr55Gag is both necessary and sufficient for the production of virus-like particles from Gag-expressing cells. The Gag protein hijacks key host proteins involved in endocytic machinery of the host cell to promote endosomal processing and viral budding. The budding process requires a direct interaction between a […] (PTAP) motif in the p6 domain of Gag and the cellular endosomal sorting protein known as Tsg101. In this way, the Gag PTAP motif promotes the host cells to recruit viral particles to the plasma membrane where the new viral particles are released, effectively turning the host cells into viral factories. A fluorescence anisotropy assay has been developed to quantitatively measure the PTAP-Tsg101 interaction which can be used to screen for inhibitors of this interaction.
NCGC Assay Protocol Summary: Two uL of the Tsg101 binding domain in buffer (10 mM HEPES pH 7.5; 0.15 M NaCl, 0.01% Tween 20; 3 mM EDTA;0.1 mM TCEP) was dispensed into Greiner black MB 1536-well plates (final concentration 10 uM). Then, 23 nL of compounds or DMSO were delivered to each well using a pin tool. Finally, 2 uL of a FITC-labeled peptide containing the PTAP motif (1) in the same buffer was dispensed (50 nM final concentration) and the binding was allowed to proceed for 20 min. at r.t. Fluorescent polarization was determined using FITC excitation and polarized emission filters on a Perkin Elmer Viewlux. Keywords: Tsg101, PTAP, Gag, HIV, fluorescent polarization, MLSMR, MLPCN, NIH Roadmap, qHTS, NCGC

| Structure (SMILES) | activity change, negative = inhibition |
| --- | --- |
| CCN(CC)CCCOC(=O)C(O)(c1ccccc1)c1ccccc1 | inactive: -1.61% |
| COc1ccccc1OP(C)(=O)Nc1cc(Cl)ccc1C (stereo not given) | inactive: -5.68% |
| COc1ccc(OP(C)(=O)Nc2cccc(F)c2)cc1 (stereo not given) | inactive: -1.68% |
| Cc1cc(C)cc(OP(C)(N)=O)c1 (stereo not given) | inactive: -1.26% |
| CCOC(=O)c1ccc(NP(C)(=O)Oc2ccccc2)cc1 (stereo not given) | inactive: -2.05% |
| COc1ccccc1OP(C)(=O)Nc1ccc(C)cc1 (stereo not given) | inactive: -2.26% |
| Cc1ccc(NP(C)(=O)Oc2ccccc2)c(C)c1 (stereo not given) | inactive: -1.28% |
| Cc1cccc(C)c1OP(C)(N)=O (stereo not given) | inactive: -3.81% |
| O=[N+]([O-])c1ccc2c(c1)C=Nc1ccccc1O2 | inactive: -5.41% |
| O=[N+]([O-])c1cc([N+](=O)[O-])c(Nc2cccnc2)c([N+](=O)[O-])c1 | inactive: -6.07% |
| COc1ccccc1OP(C)(=O)Nc1ccccc1 (stereo not given) | inactive: -2.35% |
| CP(=O)(Nc1ccccc1Br)Oc1ccccc1 (stereo not given) | inactive: -3.97% |
| CP(=S)(Nn1cnnc1)Oc1ccccc1 (stereo not given) | inactive: -1.03% |
| CP(=O)(Nc1ccccn1)Oc1ccc(Cl)cc1 (stereo not given) | inactive: -14.1% |
| CCOP(C)(=S)SCC(=O)NC(C)C(=O)O (stereo not given) | inactive: -3.8% |
| CCOC(=O)c1ccc(NP(C)(=O)Oc2ccc(OC)cc2)cc1 (stereo not given) | inactive: -2.12% |
| O=[N+]([O-])c1cc([N+](=O)[O-])c(O)c([N+](=O)[O-])c1.c1ccc(Oc2ccncc2)cc1 | inactive: -6.54% |
| CCc1ccc(OP(C)(=O)N2CCN(c3ccc([N+](=O)[O-])cc3)CC2)cc1 (stereo not given) | inactive: -2.06% |
| CP(=O)(NC(=O)Nc1ccccc1)Oc1ccccc1 (stereo not given) | inactive: 0.71% |
| Cc1cc(C)cc(OP(C)(=O)Nc2ccc(SC(F)(F)F)cc2)c1 (stereo not given) | inactive: -2.23% |
| Cc1cccc(C)c1OP(C)(=O)Nc1ccc(SC(F)(F)F)cc1 (stereo not given) | inactive: -5.82% |
| CP(=O)(Nc1ccc(SC(F)(F)F)cc1)Oc1ccc(Cl)cc1 (stereo not given) | inactive: -10.5% |

| Structure (SMILES) | activity change, negative = inhibition |
| --- | --- |
| CP(=O)(Oc1ccccc1)OC(c1ccccc1)C(F)(F)F (stereo not given) | inactive: 0.947% |
| Cc1nc2ccc3ccccc3c2s1.O=[N+]([O-])c1cc([N+](=O)[O-])c(O)c([N+](=O)[O-])c1 | inactive: -14.9% |
| O=[N+]([O-])c1cc([N+](=O)[O-])c(-c2cnn(-c3ccccc3)c2)c([N+](=O)[O-])c1 | inactive: 0.226% |
| O=[N+]([O-])c1cc([N+](=O)[O-])c(-n2nnc3ccccc32)c([N+](=O)[O-])c1 | inactive: -2.97% |
| CP(=O)(Nc1ccc(SC(F)(F)F)cc1)Oc1ccccc1 (stereo not given) | inactive: -7.56% |
| CCCOc1ccc(NP(C)(=O)Oc2ccc(Cl)cc2)cc1 (stereo not given) | inactive: -3.68% |
| COc1ccccc1OP(C)(=O)Nc1c(C)cccc1C (stereo not given) | inactive: -5.48% |
| CN1CCCCC1COC(=O)C1(O)c2ccccc2CCc2ccccc21 (stereo not given) | inactive: -3.51% |
| O=[N+]([O-])c1cc([N+](=O)[O-])c(Nc2nnnn2CCO)c([N+](=O)[O-])c1 | inactive: -6.88% |
| CC1=C2N=C(C=C3N=C(C(C)=C4[N-][C@@](C)([C@@H]5N=C1[C@](C)(CCC(=O)NC[C@@H](C)OP(=O)([O-])O[C@H]1[C@@H](O)[C@@H](n6cnc7cc(C)c(C)cc76)O[C@@H]1CO)[C@H]5CC(N)=O)[C@@](C)(CC(N)=O)[C@@H]4CCC(N)=O)[C@@](C)(CC(N)=O)[C@@H]3CCC(N)=O)C(C)(C)[C@@H]2CCC(N)=O.[C-]#N.[Co+3] | inactive: 0.487% |
| CC1=NCCc2c1[nH]c1ccccc21.O=[N+]([O-])c1cc([N+](=O)[O-])c(O)c([N+](=O)[O-])c1 | inactive: -1.17% |
| CP(=O)(Nc1cccc(Br)c1)Oc1ccccc1 (stereo not given) | inactive: -4.99% |
| Cc1cc(C)cc(OP(C)(=O)Nc2ccccn2)c1 (stereo not given) | inactive: -6.28% |
| Cc1ccc(C)c(NP(C)(=O)Oc2ccccc2)c1 (stereo not given) | inactive: 0.112% |
| Cc1cc(C)cc(OP(C)(=O)Nc2ccc(C)cc2C)c1 (stereo not given) | inactive: -3.46% |
| CCOC(=O)c1ccc(NP(C)(=O)Oc2cc(C)cc(C)c2)cc1 (stereo not given) | inactive: -6.7% |
| COc1ccccc1OP(C)(=O)Nc1cccc(Br)c1 (stereo not given) | inactive: -5.2% |
| O=C(OCCN1CCN(CCOCc2ccccc2)CC1)C(O)(c1ccccc1)c1ccccc1 | inactive: -2.91% |
| CC(C)c1ccc(OP(C)(=O)Nc2ccc(SC(F)(F)F)cc2)cc1 (stereo not given) | inactive: 11.4% |
| CP(=O)(Nc1ccccc1F)Oc1ccccc1 (stereo not given) | inactive: -7.26% |
| CCCCCOc1ccc(NP(C)(=O)Oc2ccc(Cl)cc2Cl)cc1 (stereo not given) | inactive: -4.55% |
| CP(=O)(Nc1ccccc1)Oc1ccc(F)cc1 (stereo not given) | inactive: -10.5% |

| Structure (SMILES) | activity change, negative = inhibition |
| --- | --- |
| CCN(CC)CCCOC(=O)C(O)(c1ccccc1)C1CCCCC1 (stereo not given) | inactive: 0.148% |
| Cc1c([N+](=O)[O-])cc([N+](=O)[O-])c(Br)c1[N+](=O)[O-] | inactive: -7.19% |
| COc1ccc(OP(C)(=O)Nc2ccc(SC(F)(F)F)cc2)cc1 (stereo not given) | inactive: -2.1% |
| CCOC(=O)c1ccc(NP(C)(=O)Oc2ccc(F)cc2)cc1 (stereo not given) | inactive: -4.63% |
| Cc1c(C(c2ccc3c(c2)OCO3)c2c(C)n(C)n(-c3ccccc3)c2=O)c(=O)n(-c2ccccc2)n1C.O=[N+]([O-])c1cc([N+](=O)[O-])c(O)c([N+](=O)[O-])c1 | inactive: 0.0439% |
| Cc1cc(-c2cccc3ccccc23)c(C)cn1.O=[N+]([O-])c1cc([N+](=O)[O-])c(O)c([N+](=O)[O-])c1 | inactive: -8.27% |
| O=[N+]([O-])c1ccc(OP2(=O)COCCO2)cc1 (stereo not given) | inactive: -7.04% |
| COc1ccc(NP(C)(=O)Oc2ccccc2OC)cc1 (stereo not given) | inactive: 0.035% |
| CN(C)CCOC(=O)C(O)(c1ccccc1)C1CCCCC1 (stereo not given) | inactive: -6.03% |
| COc1ccc(OP(C)(=O)Nc2cccc(Br)c2)cc1 (stereo not given) | inactive: -4.13% |
| Cc1ccccc1NP(C)(=O)Nc1ccccc1C | inactive: -2.09% |
| CP(=O)(Nc1ccc2c(c1)OCCO2)Oc1ccccc1 (stereo not given) | inactive: -0.623% |
| CCOP(C)(=S)SCC(=O)NC(C)(CC)C(=O)O (stereo not given) | inactive: -8.37% |
| CP(=O)(Nc1ccc(SC(F)(F)F)cc1)Oc1ccc(F)cc1 (stereo not given) | inactive: 2.42% |
| CN(C)C(=O)c1c([N+](=O)[O-])cc([N+](=O)[O-])cc1[N+](=O)[O-] | inactive: -1.57% |
| CP(=O)(Nc1ccc(Cl)cc1)Oc1ccc(F)cc1 (stereo not given) | inactive: -6.45% |
| CC(C)(C)c1ccc(OP(C)(=O)O)cc1 | inactive: -5.32% |
| COc1ccccc1OP(C)(=O)Nc1ccccc1Br (stereo not given) | inactive: -0.0578% |
| CP(=O)(Oc1ccccc1)N1CCOC1=O (stereo not given) | inactive: -1.42% |
| CCc1ccc(OP(C)(=O)Nc2cccnc2)cc1 (stereo not given) | inactive: -7.06% |
| COc1ccccc1OP(C)(=O)Nc1c(C)n(C)n(-c2ccccc2)c1=O (stereo not given) | inactive: -10.2% |
| O=C(OCCCN1CCCC1)C(O)(c1ccccc1)C1CCCCC1 (stereo not given) | inactive: 1.51% |

| Structure (SMILES) | activity change, negative = inhibition |
| --- | --- |
| CCN(CC)CC(O)COC(=O)C(O)(c1ccccc1)C1CCCCC1 (stereo not given) | inactive: -5.65% |
| COc1ccc(OP(C)(=O)Nc2ccc(Br)cc2)cc1 (stereo not given) | inactive: 0.98% |
| CP(=O)(OC12CC3CC(CC(C3)C1)C2)OC12CC3CC(CC(C3)C1)C2 | inactive: -4.83% |
| CCOC(=O)c1ccc(NP(C)(=O)Oc2ccc(Cl)cc2)cc1 (stereo not given) | inactive: 0.0631% |
| Nc1ccc2c(ccc3cccnc32)n1.O=[N+]([O-])c1cc([N+](=O)[O-])c(O)c([N+](=O)[O-])c1 | inactive: -9.76% |
| CP(=O)(OCCOc1ccccc1)OCCOc1ccccc1 | inactive: -12.7% |
| CP(=O)(Nc1ccc(Cl)cc1Cl)Oc1ccccc1 (stereo not given) | inactive: -7.31% |
| CCCCCCCCCCCCCCCC1C[N+](C)(C)CCOP(C)(=O)O1 (stereo not given) | inactive: 2.6% |
| COc1ccc(OP(C)(=O)Nc2ccccc2Br)cc1 (stereo not given) | inactive: -3.26% |
| COc1ccccc1OP(C)(=O)Nc1ccc(C)c(C)c1 (stereo not given) | inactive: -12% |
| Cc1cc(C)cc(OP(C)(=O)Nc2cccc(C(F)(F)F)c2)c1 (stereo not given) | inactive: -0.758% |
| CCc1ccc(OP(C)(=O)O)cc1 | inactive: -2% |
| CP(=O)(Nc1ccccn1)Oc1ccccc1 (stereo not given) | inactive: -7.91% |
| COc1ccccc1OP(C)(=O)Nc1ccc(C)cc1C (stereo not given) | inactive: -4.98% |
| O=[N+]([O-])c1cc([N+](=O)[O-])c(Nc2ccccn2)c([N+](=O)[O-])c1 | inactive: -0.684% |
| Cc1c(NP(C)(=O)Oc2ccc(C(C)C)cc2)c(=O)n(-c2ccccc2)n1C (stereo not given) | inactive: -1.14% |
| CN(C)CCOC(=O)C(O)(c1ccccc1)C1CCCC1 (stereo not given) | inactive: -3.38% |
| COc1ccc(OP(C)(=O)Nc2ccccn2)cc1 (stereo not given) | inactive: -9.5% |
| COc1ccccc1OP(C)(=O)Nc1ccc(Br)cc1 (stereo not given) | inactive: -2.36% |
